Reference: patent US20250302983A1, “Saponin Conjugates” (priority 2018, published 2025)

Assays:
human A431 tumor cells = assay: A431 xenograft animal tumor model, tumor volume after treatment (Example A); format: in vivo, Balb/c nude mice
Description: Female Balb/c nude mice were injected subcutaneously with a suspension of human A431 tumor cells. Under the skin of the mice, a human epidermal carcinoma developed in the xenograft animal tumor model. After injection of the tumor cells, the xenograft tumor was allowed to develop to a size of approximately 170-180 mm^3. The A431 tumor cells have the following characteristics: high EGFR expressors, medium CD71 expressors, low HER2 expressors.
In Table A, the results of the treatment of control mice and tumor-bearing mice are presented. Tumor-bearing mice were treated with the indicated antibodies directed to either human Her2/neu, human EGFR, or human CD71, which are cell-surface receptors on the xenograft tumor. Cetuximab was covalently conjugated with saponin SO1861. […] The ADCs trastuzumab-saporin (covalent conjugate) and anti-CD71 mAb (OKT-9, IgG)-saporin (covalent conjugate) were tested for their tumor-attacking efficacy in the mice, measured as tumor volume in time after start of the treatment with the ADCs. The dose of the ADCs was sub-optimal in the tumor model. That is to say, from previous experiments, it was established at which sub-optimal dose of the ADCs no tumor-regression or arrest of tumor growth would be observable.

[1] = test system: MDA-MB-468 cells (EGFR++, HER2−); assay: targeted protein toxin mediated cell killing on MDA-MB-468 cells; format: cell-based, human

Row | Substance | outcome (death/euthanasia or survival) (human A431 tumor cells) | tumor size (volume in mm^3) (human A431 tumor cells; ADCs at sub-optimal dose, tumor ~170-180 mm^3 at start of treatment) [mm^3] | IC50 ([1]; + 10 pM cetuximab-saporin) [nM] | toxin-mediated cell killing ([1]; alone)
1 | Cetuximab-SO1861: saponin SO1861-EMCH covalently coupled to reduced cysteines of Cetuximab | death/euthanasia | 2000 |  | 
2 | Cetuximab-Cys-(dendron(-L-SO1861)^4)^3,9: Dendron(-L-SO1861)^4 conjugated to cetuximab via cysteine residues, DAR3,9 |  |  | 0.4 | not induced
